From paper PMC6212833 (mBio, 2018)
Read-outs that look alike come from different tables or passages of the source.

Columns and labels:
[1] = tested on: B. mandrillaris trophozoites; experiment: Nitroxoline structure-activity relationship dose response (CellTiter Glo); assay type: cell-based, Balamuthia mandrillaris; settings: 72 h, sigmoidal curve fit
[2] = tested on: B. mandrillaris trophozoites; assay type: cell-based, Balamuthia mandrillaris

**Q.** With 6-Nitroquinolone [compound 15] as the substance, how does the Hill slope [1] read?
**A.** 1.41

**Q.** Which B-score ([2]; 20 µM, 72 h) does the source give for Demecarium Bromide here?
**A.** 11.79

**Q.** Which B-score [2] does the source give for Plicamycin here?
**A.** 8.18
